{"source": "paper PMC2757719", "about": "“EBNA1-Mediated Recruitment of a Histone H2B Deubiquitylating Complex to the Epstein-Barr Virus Latent Origin of DNA Replication” (PLoS Pathogens, 2009)", "binders": {"B1": {"name": "USP7-NTD (N-terminal TRAF domain of USP7, amino acids 56–205) (domain or fragment, human, UniProt Q93009 56-205, looked up)", "chain": "EEDMEDDTSWRSEATFQFTVERFSRLSESVLSPPCFVRNLPWKIMVMPRFYPDRPHQKSVGFFLQCNAESDSTSWSCHAQAVLKIINYRDDEKSFSRRISHLFFHKENDWGFSNFMAWSEVTDPEKGFIDDDKVTFEVFVQADAPHGVAW", "notes": "USP7 N-terminal TRAF domain, human, amino acids 56-205; also called USP-NTD; N-terminal domain of USP7"}}, "molecular_target": "T1, EBNA1 truncation mutant […] (Epstein-Barr virus)", "T1 construct": "EBNA1 of Epstein-Barr virus, […], amplified from pc3oriPEBNA1; also called EBNA1_([…]); EBNA_([…]); source: E. coli BL21 pLysS (pET15b), purified (Ni-NTA Agarose)", "experiment": "native gel or EMSA; EBNA1 fragment titrated, preincubated with 10 pmols USP7 or USP7-NTD 10 min at RT before 10 fmoles 32P-labelled DS site 1 DNA (or EBNA1-DNA preformed, then rising USP7, Figure 2C); 20 mM Tris pH 7.5, 200 mM NaCl, 1 µg salmon sperm DNA, 20 µl; 10% polyacrylamide gel; read-out: supershift of the EBNA1-DNA complex", "settings": "both partners purified", "data": [{"binder": "B1", "values": [{"measurement": "binding result", "result": "binds"}]}]}
